# Laboratory results published in publication doi:10.1101/2020.04.30.069369.
# Construct, isoform or probe ends are uncertain for at least one entry.
# Tested on: Rgg2Sd (Streptococcus dysgalactiae)
# Assay: X-ray crystallography
sequence,measurement,value
CCATTTTTCCCACTTTCACAACAAAAAATT / TTTTTTGTTGTGAAAGTGGGAAAAATGGAA [Rgg2 box (pSHP2DNA)],binding result,binds
